Laboratory results taken from patent US20250296937A1, “CYCLIC BISBENZYL TETRAHYDROISOQUINOLINE COMPOUND, AND PREPARATION METHOD THEREFOR AND USE THEREOF” (Shanghai Institute of Materia Medica, Chinesse Academy of …, priority 2021, published 2025).

Test system: 2019 novel coronavirus (SARS-CoV-2) original strain
Test: Replication inhibitory activity against SARS-CoV-2 original strain in Vero E6 cells (qRT-PCR)
Format: cell-based
Conditions: SI = Cytotoxicity CC50 value/Inhibition against viral replication of original strain EC50 value

CCCCNC(=O)Oc1ccc2cc1Oc1ccc(cc1)C[C@H]1c3c(cc(OC)c(OC)c3Oc3cc4c(cc3OC)CCN(C)[C@@H]4C2)CCN1C [Compound 2]
Therapeutic index SI: 30-50

COC(=O)c1ccc2cc1Oc1ccc(cc1)C[C@H]1c3c(cc(OC)c(OC)c3Oc3cc4c(cc3OC)CCN(C)[C@@H]4C2)CCN1C [Compound 3]
Therapeutic index SI: >50

COc1cc2c3cc1Oc1c(OC)c(OC)cc4c1[C@H](Cc1ccc(cc1)Oc1cc(ccc1C(N)=O)C[C@H]3N(C)CC2)N(C)CC4 [Compound 4]
Therapeutic index SI: >100

CNC(=O)c1ccc2cc1Oc1ccc(cc1)C[C@H]1c3c(cc(OC)c(OC)c3Oc3cc4c(cc3OC)CCN(C)[C@@H]4C2)CCN1C [Compound 5]
Therapeutic index SI: 10-30

COc1cc2c3cc1Oc1c(OC)c(OC)cc4c1[C@H](Cc1ccc(cc1)Oc1cc(ccc1C(=O)NC1CC1)C[C@H]3N(C)CC2)N(C)CC4 [Compound 6]
Therapeutic index SI: >50

COc1cc2c3cc1Oc1c(OC)c(OC)cc4c1[C@H](Cc1ccc(cc1)Oc1cc(ccc1CO)C[C@H]3N(C)CC2)N(C)CC4 [Compound 9]
Therapeutic index SI: >33

COc1cc2c3cc1Oc1c(OC)c(OC)cc4c1[C@H](Cc1ccc(cc1)Oc1cc(cc5[nH]c(=O)oc15)C[C@H]3N(C)CC2)N(C)CC4 [Compound 17]
Therapeutic index SI: >10

COc1cc2c3cc1Oc1c(OC)c(OC)cc4c1[C@H](Cc1ccc(cc1)Oc1cc(ccc1C(C)=O)C[C@H]3N(C)CC2)N(C)CC4 [Compound 19]
Therapeutic index SI: >20

COc1cc2c3cc1Oc1c(OC)c(OC)cc4c1[C@H](Cc1ccc(cc1)Oc1cc(ccc1C(=O)NC1CCCC1)C[C@H]3N(C)CC2)N(C)CC4 [Compound 22]
Therapeutic index SI: >6

COc1cc2c3cc1Oc1c(OC)c(OC)cc4c1[C@H](Cc1ccc(cc1)Oc1cccc(c1)C[C@H]3N(C)CC2)N(C)CC4 [Compound 33]
Therapeutic index SI: >10

C=C(C)c1ccc2cc1Oc1ccc(cc1)C[C@H]1c3c(cc(OC)c(OC)c3Oc3cc4c(cc3OC)CCN(C)[C@@H]4C2)CCN1C [Compound 34]
Therapeutic index SI: >6

COc1cc2c3cc1Oc1c(OC)c(OC)cc4c1[C@H](Cc1ccc(cc1)Oc1cc(ccc1C)C[C@H]3N(C)CC2)N(C)CC4 [Compound 35]
Therapeutic index SI: >2

CCCCCNC(=O)c1ccc2cc1Oc1ccc(cc1)C[C@H]1c3c(cc(OC)c(OC)c3Oc3cc4c(cc3OC)CCN(C)[C@@H]4C2)CCN1C [Compound 37]
Therapeutic index SI: >2

COc1cc2c3cc1Oc1c(OC)c(OC)cc4c1[C@H](Cc1ccc(cc1)Oc1cc(ccc1C1CC1)C[C@H]3N(C)CC2)N(C)CC4 [Compound 38]
Therapeutic index SI: >2

COc1cc2c3cc1Oc1c(OC)c(OC)cc4c1[C@H](Cc1ccc(cc1)Oc1cc(ccc1C(C)O)C[C@H]3N(C)CC2)N(C)CC4 (stereo partly shown) [Compound 40]
Therapeutic index SI: >30

COc1cc2c3cc1Oc1c(OC)c(OC)cc4c1[C@H](Cc1ccc(cc1)Oc1cc(ccc1C(=O)Nc1ccccc1)C[C@H]3N(C)CC2)N(C)CC4 [Compound 45]
Therapeutic index SI: >2

COc1cc2c3cc1Oc1c(OC)c(OC)cc4c1[C@H](Cc1ccc(cc1)Oc1cc(ccc1C(=O)NC(C)C)C[C@H]3N(C)CC2)N(C)CC4 [Compound 48]
Therapeutic index SI: >10

COc1cc2c3cc1Oc1c(OC)c(OC)cc4c1[C@H](Cc1ccc(cc1)Oc1cc(ccc1C(=O)NC15CC6CC(CC(C6)C1)C5)C[C@H]3N(C)CC2)N(C)CC4 [Compound 49]
Therapeutic index SI: >5

COc1cc2c3cc1Oc1c(OC)c(OC)cc4c1[C@H](Cc1ccc(cc1)Oc1cc(ccc1C(=O)NC1CCC1)C[C@H]3N(C)CC2)N(C)CC4 [Compound 50]
Therapeutic index SI: >30

COc1cc2c3cc1Oc1c(OC)c(OC)cc4c1[C@H](Cc1ccc(cc1)Oc1cc(ccc1C(=O)Nc1cccnc1)C[C@H]3N(C)CC2)N(C)CC4 [Compound 51]
Therapeutic index SI: >10

COc1ccc(NC(=O)c2ccc3cc2Oc2ccc(cc2)C[C@H]2c4c(cc(OC)c(OC)c4Oc4cc5c(cc4OC)CCN(C)[C@@H]5C3)CCN2C)cc1 [Compound 52]
Therapeutic index SI: >10

COc1cc2c3cc1Oc1c(OC)c(OC)cc4c1[C@H](Cc1ccc(cc1)Oc1cc(ccc1C(=O)C1CC1)C[C@H]3N(C)CC2)N(C)CC4 [Compound 54]
Therapeutic index SI: >2

COc1cc2c3cc1Oc1c(OC)c(OC)cc4c1[C@H](Cc1ccc(cc1)Oc1cc(ccc1C(=O)NCCOCCO)C[C@H]3N(C)CC2)N(C)CC4 [Compound 55]
Therapeutic index SI: >20

COc1cc2c3cc1Oc1c(OC)c(OC)cc4c1[C@H](Cc1ccc(cc1)Oc1cc(ccc1C(=O)OCCOCCO)C[C@H]3N(C)CC2)N(C)CC4 [Compound 58]
Therapeutic index SI: >50

oxyacanthine hydrochloride [reference compound]
Therapeutic index SI: <3
